Test system: Pseudomonas aeruginosa ATCC#33988
Assay: Microbial testing in biodiesel fuel, plate count
Assay type: cell-based
Settings: no biocide

## OCCN(CCO)CCO
Additive 500 ppm, Week 1
  Bacteria (Ps. aeruginosa) count: 1.80E+06 Bact/ml
Additive 500 ppm, Week 2
  Bacteria (Ps. aeruginosa) count: 3.00E+06 Bact/ml
Additive 500 ppm, Week 4
  Bacteria (Ps. aeruginosa) count: 9.00E+05 Bact/ml
Additive 1500 ppm, Week 1
  Bacteria (Ps. aeruginosa) count: 4.00E+05 Bact/ml
Additive 1500 ppm, Week 2
  Bacteria (Ps. aeruginosa) count: 7.60E+05 Bact/ml
Additive 1500 ppm, Week 3
  Bacteria (Ps. aeruginosa) count: 8.20E+05 Bact/ml
Additive 1500 ppm, Week 4
  Bacteria (Ps. aeruginosa) count: 5.70E+05 Bact/ml

Source: patent US8546386B2, “Corrosion and microbial control in hydrocarbonaceous compositions” (Dow Global Technologies LLC, priority 2008, dated 2013)
